Biological target: ricin toxin-A (RTA) (Ricinus communis, UniProt P02879)
Assay: Inhibition kinetics of RTA, competitive with substrate A-10; adenine release quantitated by HPLC
Settings: ternary complex of RTA, DADMe-A and 9-deazaadenine

## Nc1ncnc2cc[nH]c12
  effect on the activation by DADMe-A: abolish the activation effect

Reference: US7777025B2, “Transition state analog inhibitors of ricin A-chain” (dated 2010)
